Experimental data published in patent US10378034B2, “Use of a N-acetylneuraminate lyase derived from the bacterium Aliivibrio salmonicida in the production of neuraminic acid and derivatives thereof” (Universitetet i Tromsø-Norges Arktiske Universitet, priority 2014, dated 2019).

Assay: Condensation-cleavage equilibrium studies
Assay type: biochemical
Settings: HEPES pH 8.0

B1: AsNAL: N-acetylneuraminate lyase isolated from the psychrophilic bacterium Aliivibrio salmonicida LFI1238, recombinantly expressed in E. coli (protein, listed as Aliivibrio salmonicida)
chain: MKKLTGLIAAPHTPFDSSSNVNFEEIDKIAKHLINDGVKGIYVCGTTGEGIHCSVEERKAIAERWVSACNHKLDIIVHTGALSIVDTLELTRHADTLDILATSAIGPCFFKPGSVSDLVEYCATIAAAAPSKGFYYYHSGMSGVNLNMEEFLIQADKRIPNLSGLKFNSGDLYEYQRCLRACDGKFDVPFGVDEFLPGALAVGAKSAVGSTYNYAAPHFNSIIEAFNKGDHDAVFNKMTNVIELIRVLVEFGGVAAGKIAMELHDINAGDPRLPLMPLSAEQKLTVVEKMRAANFLK
**Q.** With B1 as the molecule, how does the “equilibrium constant for the cleavage reaction, Kc” value (from here on “equilibrium constant”) (4° C.) read?
**A.** 0.003

**Q.** And the “equilibrium constant” value (23° C.)?
**A.** 0.031

**Q.** What about the “equilibrium constant” value (37° C.) of the same molecule?
**A.** 0.068
